Anti-infective test results gathered from many reports (values: NIAID ChemDB through PubChem).

Common to all: tests in culture; agent: HIV-1; read-out: fold resistance

Conditions beyond the fields shown may differ between rows. Fold resistance has wild type as its base. Blank or dashed fields: not listed here.

compound | cells | strain | conditions | changes | value
CC(C)CN(C[C@@H](O)[C@H](Cc1ccccc1)NC(=O)O[C@H]1CO[C@H]2OCC(F)(F)[C@H]21)S(=O)(=O)c1ccc(N)cc1 | MT-4 | NL4-3 |  | M46I I50V N38K M36I GRL05010-resistant | 10
Nc1ccn([C@H]2CC[C@@H](CO)O2)c(=O)n1 | HT4 + HT4 LacZ-1 | 184V (RT-M184V) |  | RT-M184V | 2.11
Nc1ccn([C@H]2CC[C@@H](CO)O2)c(=O)n1 | MT-4 | Clinical isolate | clinical isolate | AZT-resistant (RT I50V D67N K70R I135V T215Y) | 1.625
O=C1O[C@H]2[C@@H]3OC(=O)c4cc(O)c(O)c(O)c4-c4c(cc(O)c(O)c4O)C(=O)OC[C@H]2O[C@@H](OC(=O)c2cc(O)c(O)c(O)c2)[C@@H]3OC(=O)c2cc(O)c(O)c3c2[C@@H]2C1=CC(=O)[C@](O)(O3)C2(O)O | MAGI | NRTI resistant (RT M41I L74V V106A T215V) ARP146 |  | RT-M41I L74V V106A T215V | 0.96
CC(=O)Oc1ccc(/C=C/C(=O)O[C@H](C(=O)O)[C@H](OC(=O)/C=C/c2ccc(OC(C)=O)c(OC(C)=O)c2)C(=O)O)cc1OC(C)=O | MT-4 | NL4-3 |  | AMD3100-resistant | >11.9
COC(=O)N[C@H](C(=O)N[C@@H](Cc1ccccc1)[C@@H](O)CN(Cc1ccc(-c2ccccn2)cc1)NC(=O)[C@@H](NC(=O)OC)C(C)(C)C)C(C)(C)C | MT-4 | NL4-3 |  | L23I E34Q K43I M46I I50L G51A L63P A71V V82A T91A ATV resistant | >250
CC(C)Oc1ccc(Cc2ccccc2)cc1C(=O)CC(=O)C(=O)O |  |  |  | IN-T66I S153Y N155S | >125
Cc1cn([C@H]2C[C@H](N=[N+]=[N-])[C@@H](CO)O2)c(=O)[nH]c1=O | PBMC | BCF02 |  | RT-A98G V106I Y181C | 1
O=C1Nc2ccc(Cl)cc2[C@@](C#CC2CC2)(C(F)(F)F)N1 |  |  |  | RT-L100I K103N | 550
CC(C)(C)C(=O)c1sc(C(=O)NCc2ccccc2)c(O)c1O |  |  |  | INTG-Q148K | 1
Nc1nc(N)c2ncn([C@H]3CO[C@@H](CO)O3)c2n1 | MT-2 |  |  | RT-K65R | 5.21
CC(C)=CCN1c2cc(Cl)cc3[nH]c(=S)n(c23)C[C@@H]1C | MT-4 |  |  | RT-M41L T215Y | 1
CC(C)=CCN1Cc2cc(Cl)cc3[nH]c(=S)n(c23)C[C@@H]1C | PBMC | BCF01 |  | RT-A98G K103R Y181C | >312.5
Nc1nc2c(ncn2[C@H]2CO[C@@H](CO)O2)c(=O)[nH]1 |  |  |  | RT-T69N K70R Q151M T215Y | ~3.5
O=C(NCc1ccc(F)cc1)c1nc(N2CCCCS2(=O)=O)c2cccnc2c1O |  |  |  | INTG-N155S | 30
Cn1c2ccccc2c2c1cc(C#N)c(=O)n2-c1ccc([N+](=O)[O-])cc1 | MT-2 | HXB2 |  | Remodeled TAMs (K70G V75T L228R K219R) | 0.2
CCc1cc([C@](C#CC2CC2)(OCc2ccccc2)C(F)(F)F)c(=O)[nH]c1C |  |  |  | RT-L100I K103N | 14.52
CC(C)(C)NC(=O)[C@@H]1C[C@@H]2CCCC[C@@H]2CN1C[C@@H](O)[C@H](Cc1ccccc1)NC(=O)[C@H](CC(N)=O)NC(=O)c1ccc2ccccc2n1 |  | BMS-186318-resistant (PR A71T V82A) |  | PR-A71T V82A | 2.03
Nc1nc2c(ncn2[C@H]2CO[C@@H](CO)O2)c(=O)[nH]1 |  | RT-68G 151M 215Y |  | RT-S68G Q151M T215Y | 5
Cc1ccnc2c1NC(=O)c1cccnc1N2C1CC1 | PBMC | BCF02 |  | RT-A98G V106I Y181C | 210
Nc1ccn([C@@H]2CC[C@H](CO)O2)c(=O)n1 | HT4 + HT4 LacZ-1 | 74V (RT-L74V) |  | RT-L74V | 1.24
COc1ccc(S(=O)(=O)N(CC(C)C)C[C@@H](O)[C@H](Cc2ccccc2)NC(=O)O[C@H]2CO[C@H]3OCC(F)(F)[C@H]32)cc1 | MT-4 | NL4-3 |  | L10I G48V I54V A71V I84V L90M SQV resistant | 260

For reference, 2 entries again:

compound,cells,strain,conditions,changes,value
O=C(NCc1ccc(F)cc1)c1nc(N2CCCCS2(=O)=O)c2cccnc2c1O,,,,INTG-N155S,30
CC(C)Oc1ccc(Cc2ccccc2)cc1C(=O)CC(=O)C(=O)O,,,,IN-T66I S153Y N155S,>125